# PubChem BioAssay AID624099, ICCB-Longwood – 2012
# Test: 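Host factors E2 relies on to silence an HPV18 LCR reporter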 (primary screen)
# Cell system: human C33A cervical carcinoma cells (HPV-negative) stably expressing BPV1 E2 and an HPV18 LCR luciferase reporter
# Reagent: siRNA pool against human genes, 40 nM
# Time to read-out: 72 h
# Measured: 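HPV18 LCR reporter light per well, converted to plate-wise z-scores that exclude control wells, and averaged over triplicate plates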
# Direction: mean z-score and z-score: higher = stronger reporter signal, weaker E2 silencing
# Active means: 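Hit if mean z-score reaches 2 and two or more of three replicate z-scores also reach 2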
# Shown is a random part of about 21,000 deposited reagents. 497 of all reagents (2.4%) count as active. 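Higher z means weaker E2 silencing; only reporter increases were scored, and knock-downs that hurt cell survival may mask genuine repressor factors.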 Reagents against one gene are numbered here. Reagent sequences are not shown.
target,reagent no.,mean z-score,"z-score, replicate A","z-score, replicate B","z-score, replicate C",activity call
FCAMR,1,-0.3,-0.22,-0.02,-0.67,inactive
TMIGD1,1,-1.44,-1.46,-1.47,-1.39,inactive
CENPM,1,0.82,0.87,0.72,0.88,inactive
FMO1,1,-0.63,-0.72,-0.75,-0.42,inactive
PSG5,1,2.06,2.07,1.97,2.15,active
PARP15,1,-0.39,-0.52,-0.55,-0.1,inactive
LOC389352 (retired record),1,0.6,0.55,0.72,0.55,inactive
CYB561A3,1,0.02,0.36,-0.29,0,inactive
WLS,1,-0.02,-0.22,0.24,-0.09,inactive
IST1,1,0.78,0.74,0.66,0.94,inactive
KCND1,1,-0.43,-0.25,-0.43,-0.61,inactive
PTPN21,1,-0.34,-0.33,-0.5,-0.2,inactive
CDKL2,1,0.52,0.38,0.46,0.73,inactive
SMC1B,1,0.24,0.7,0.38,-0.37,inactive
CHMP2A,1,0.05,-0.41,0.21,0.34,inactive
ZKSCAN2,1,-0.05,-0.05,0.16,-0.26,inactive
SOCS4,1,-0.68,-1.01,-0.54,-0.5,inactive
KATNA1,1,0.3,0.41,0.23,0.27,inactive
PAX1,1,-0.31,-0.34,-0.19,-0.38,inactive
CCDC93,1,1.13,0.86,1.3,1.23,inactive
LOC390812 (retired record),1,0.88,1.19,0.72,0.73,inactive
MRPL20,1,0.22,0.04,0.2,0.42,inactive
AASS,1,1.62,1.81,1.62,1.42,inactive
FXYD6,1,-1.01,-0.81,-1.05,-1.18,inactive
VPS13B,1,0.43,-0.15,0.64,0.81,inactive
LOC400877 (retired record),1,0.44,0.42,0.31,0.58,inactive
SLC39A6,1,0.59,0.55,0.61,0.61,inactive
LINC00880,1,-0.23,-0.1,-0.14,-0.44,inactive
CASP16P,1,-0.89,-0.79,-0.72,-1.16,inactive
SLC31A1,1,0.56,0.21,0.87,0.59,inactive
KATNB1,1,-0.87,-0.81,-0.95,-0.85,inactive
TFIP11,1,0.77,0.59,0.74,1,inactive
CLGN,1,-0.87,-1.39,-0.49,-0.73,inactive
MROH1,1,-2.32,-2.41,-2.2,-2.36,inactive
MROH1,2,0.3,0.34,0.3,0.27,inactive
SPOCK1,1,-0.05,0,-0.04,-0.12,inactive
ZNF516-DT,1,-2.03,-2.01,-2.25,-1.84,inactive
MRPL33,1,0.31,0.23,0.38,0.32,inactive
TINCR,1,1.11,0.8,1.23,1.31,inactive

Entries above called active, once more:
target,reagent no.,mean z-score,"z-score, replicate A","z-score, replicate B","z-score, replicate C",activity call
PSG5,1,2.06,2.07,1.97,2.15,active
